Results as given in article PMC9460038, “Antigiardial Activity of Foeniculum vulgare Hexane Extract and Some of Its Constituents” (Plants, 2022).

System: Vero cells
Assay: Cytotoxic activity on Vero cell line (Trypan blue, 24 h)
Type: cell-based
Details: ratio of IC50 in Vero cells to IC50 in G. duodenalis
Procedure: Cytotoxicity assay was performed on Vero cell line (ATCC CCL-81), as previously described. Briefly, Vero cells were cultivated in Roswell Park Memorial Institute (RPMI) medium supplemented with 10% fetal bovine serum (FBS). […] Each compound was dissolved in dimethyl sulfoxide (DMSO) and sterilized by filtration, and brought to final concentrations of 487, 243.5, 121.75 and 60.875 μg/mL with RPMI medium supplemented with 10% FBS. The cell suspension was adjusted to 1 × 10^4 cells/mL with RPMI medium supplemented with 10% FBS. Cell suspension (200 μL) was placed into a 96-well plate and incubated at 37 °C in a 5% CO2 atmosphere for 24 h. Each compound solution was added to each well containing the Vero cells and incubated for 24 h. The assay was carried out in triplicate. The number of cells were determined in a Neubauer chamber, while the percentage of viable cells was measured with the Trypan blue staining method.
The SI is the ratio of the IC50 concentration in host cells (Vero cells) to that in parasite (G. duodenalis).

Row | Molecule | Selectivity Index (SI)
1 | C=C1[C@H]2CC[C@H](C2)C1(C)C [(1R,4S) (+)-Camphene] | 2.7
2 | (R) (−)-Carvone | 1.6
